Molecular target: T1, EYFP-18E7 (human papillomavirus type 18)
T1 construct: Cloned in pEYFP-C1; SG linker between EYFP and E7; also called EYFP-E7 (HPV18); HPV 18E7; source: C33A, transfected, in cells; not shown: EYFP, N-terminal, kept
Experiment: FRET or BRET; flow cytometry-based FRET (FACS-FRET) in C33A cells coexpressing mTagBFP2-E6 and EYFP-E7 of the same HPV type; at least 10% FRET and at least 500 FRET-positive cells count as an interaction; three biological replicates
Details: partners not purified

B1: mTagBFP2-18E6 (natural protein)
chain: not shown
notes: Cloned in pmTagBFP-C1; SG linker between the fluorescent protein and the viral protein; also called mTagBFP2-E6 (HPV18); HPV 18E6; source: C33A, transfected, in cells; not shown: mTagBFP2, N-terminal, kept
percent FRET: 15%
